Results as given in patent publication US11653679B2, “High-purity steviol glycosides” (PureCircle Sdn Bhd, priority 2014, dated 2023).
Some compounds share one wording; it may come from a single statement.

Experiments:
Cellulase Tr = assay: Stability of rebaudiosides in the presence of Cellulase Tr (Example 50); assay type: biochemical, Trichoderma reesei; conditions: 1 mM, pH 4.5, 30° C., 24 h
Cellobiase As = assay: Stability of rebaudiosides in the presence of Cellobiase As (Example 50); assay type: biochemical, Aspergillus niger; conditions: 1 mM, pH 4.5, 30° C., 24 h

Structure (SMILES) | conversion of rebaudioside in the presence of Cellulase Tr (Cellulase Tr) | conversion of rebaudioside in the presence of Cellobiase As (Cellobiase As)
C=C1C[C@@]23CC[C@H]4[C@@](C)(CCC[C@@]4(C)C(=O)O[C@@H]4O[C@H](CO)[C@@H](O)[C@H](O[C@@H]5O[C@H](CO)[C@@H](O)[C@H](O)[C@H]5O)[C@H]4O[C@@H]4O[C@H](CO)[C@@H](O)[C@H](O)[C@H]4O)[C@@H]2CC[C@]1(O[C@@H]1O[C@H](CO)[C@@H](O)[C@H](O[C@@H]2O[C@H](CO)[C@@H](O)[C@H](O)[C@H]2O)[C@H]1O[C@@H]1O[C@H](CO)[C@@H](O)[C@H](O)[C@H]1O)C3 [reb M, Rebaudioside M] | no significant conversion | no significant conversion
C=C1C[C@@]23CC[C@H]4[C@@](C)(CCC[C@@]4(C)C(=O)O[C@@H]4O[C@H](CO)[C@@H](O)[C@H](O)[C@H]4O[C@@H]4O[C@H](CO)[C@@H](O)[C@H](O)[C@H]4O)[C@@H]2CC[C@]1(O[C@@H]1O[C@H](CO)[C@@H](O)[C@H](O[C@@H]2O[C@H](CO)[C@@H](O)[C@H](O)[C@H]2O)[C@H]1O[C@@H]1O[C@H](CO)[C@@H](O)[C@H](O)[C@H]1O)C3 [Rebaudioside D] | no significant conversion | no significant conversion
C=C1C[C@@]23CC[C@H]4[C@@](C)(CCC[C@@]4(C)C(=O)O[C@@H]4O[C@H](CO)[C@@H](O)[C@H](O)[C@H]4O)[C@@H]2CC[C@]1(O[C@@H]1O[C@H](CO)[C@@H](O)[C@H](O[C@@H]2O[C@H](CO)[C@@H](O)[C@H](O)[C@H]2O)[C@H]1O[C@@H]1O[C@H](CO)[C@@H](O)[C@H](O)[C@H]1O)C3 [Rebaudioside A, reference compound] | no significant conversion | no significant conversion
